Pooled drug test results. Numbers come from NIAID ChemDB, via PubChem.

Common to all: whole-cell or culture tests; organism: Aspergillus niger; read-out: MIC

Neighbouring rows are from separate reports. An empty or dashed field is not shown. Two numbers with a dash give a range or band.

SMILES | strain or isolate | read by | value
O=C(O)c1ccc[nH]c1=S | MTCC 1349 | - | 420 µg/mL
COc1ccc(-c2cc(-c3ccc4oc(=O)c(-c5ccccc5)c(C)c4c3)nc3c2oc2ccccc23)cc1OC | MTCC 282 | broth dilution / turbidity | 500 µg/mL
COC(=O)[C@]1(C)CCC[C@]2(C)c3ccc(C(C)C)cc3-c3[nH]c4c(Cl)cccc4c3C12 | CGMCC3.316 | - | >100 µg/mL
Oc1cccc2c(Br)ccnc12 | ATCC 1004 | - | 3 µg/mL
O=C(O)c1ccc(NC(=S)N/N=C/c2ccccc2)cc1 | - | agar diffusion | 2.89 µM
C[C@@H]1[C@H](O)[C@@H](C)/C=C/C=C/CC/C=C/C=C/C=C/C=C/[C@H](O[C@@H]2O[C@H](C)[C@@H](O)[C@H](N)[C@@H]2O)C[C@@H]2O[C@](O)(C[C@@H](O)[C@H](O)CC[C@@H](O)C[C@@H](O)C[C@@H](O)CC(=O)O[C@H]1C)C[C@H](O)[C@H]2C(=O)O | - | - | 0.75 µg/mL
Brc1ccc(COc2cccc3cccnc23)cc1 | - | broth dilution | >100 µg/mL
Nc1c(/C=N/NC(=O)c2ccncc2)cccc1CN1CCCC1 | MTCC 8184 | - | 25 µg/mL
COc1ccc(C2=[N+]([O-])c3ccccc3C2=O)cc1 | - | - | >125 µg/mL
O=NC(=O)c1ccc(NC(=S)NNc2c(O)[nH]c3ccccc23)cc1 | - | agar diffusion | 0.82 µM
Clc1ccc([Se][Se]c2ccc(Cl)cc2)cc1 | - | broth dilution | >64 µg/mL
Cc1c(-c2ccccc2)c(=O)oc2ccc(-c3cc(-c4ccccc4)c4c(n3)-c3ccccc3CC4)cc12 | MTCC 282 | broth dilution / turbidity | >1000 µg/mL
O=C1CCC(c2ccccc2)C(=O)N1 | DSM 1988 | - | >100 µM
c1ccc(-c2ccc(C(c3ccccc3)n3ccnc3)cc2)cc1 | - | - | 3.125 µg/mL
Nc1c(/C=N/NC(=O)c2ccncc2)cccc1CN1CCNCC1 | MTCC 8184 | - | 3.12 µg/mL
Oc1cccc2cccnc12 | ATCC 1004 | - | 20 µg/mL
COc1ccc2c(c1)C(=O)C(c1ccc(-c3ccc(Cl)cc3)cc1)=[N+]2[O-] | - | - | >62.5 µg/mL
COc1ccc(/C=N/NC(=S)Nc2ccc(C(=O)NO)cc2)cc1OC | - | agar diffusion | 1.1 µM
Cc1ccc(N2NOC(=O)C2S(=O)(=O)Nc2ccc(-n3c(-c4ccccc4)nc4ccccc4c3=O)cc2)cc1 | MTCC 282 | broth dilution | 1000 µg/mL
C/C(=N\NC(=S)Nc1ccc(C(=O)O)cc1)c1ccccc1 | - | agar diffusion | 3.13 µM
Cc1ccc(N2NOC(=O)C2S(=O)(=O)Nc2nc(-c3ccc(Cl)cc3)cs2)cc1 | MTCC 282 | broth dilution | 250 µg/mL
Cc1cccc(COc2cccc3cccnc23)c1 | - | broth dilution | 12.5 µg/mL
C[C@H]1[C@H](O)[C@@H](C)/C=C/C=C/C=C/C=C/C=C/C=C/C=C/[C@H](O[C@@H]2O[C@H](C)[C@@H](O)[C@H](N)[C@@H]2O)C[C@@H]2O[C@](O)(C[C@@H](O)C[C@@H](O)CC[C@H](O)[C@@H](O)C[C@@H](O)CC(=O)O[C@H]1C)C[C@H](O)[C@H]2C(=O)O | CCUG 18919 | - | 8 µg/mL
Cc1ccc(N2NOC(=O)C2S(=O)(=O)Nc2ccc(-n3c(-c4cccc([N+](=O)[O-])c4)nc4ccccc4c3=O)cc2)cc1 | MTCC 282 | broth dilution | 500 µg/mL
Oc1cc(Cl)cc2cccnc12 | ATCC 1004 | - | 3 µg/mL
c1ccc(-c2cccc(COc3cccc4cccnc34)c2)cc1 | - | broth dilution | >100 µg/mL
Cc1ccc(N2NOC(=O)C2S(=O)(=O)Nc2ccc(-n3c(-c4ccc(Cl)cc4)nc4ccccc4c3=O)cc2)cc1 | MTCC 282 | broth dilution | 250 µg/mL
C[C@@H]1[C@H](O)[C@@H](C)/C=C/C=C/CC/C=C/C=C/C=C/C=C/C(O[C@H]2O[C@H](C)[C@@H](O)[C@H](N)[C@@H]2O)CC2O[C@](O)(CC(O)C(O)CCC(O)CC(O)CC(O)CC(=O)O[C@H]1C)CC(O)C2C(=O)O | - | - | 10 µM
C/C(=N\NC(=S)Nc1ccc(C(=O)NO)cc1)c1ccccc1 | - | agar diffusion | 1.44 µM
Oc1c(Cl)ccc2cccnc12 | ATCC 1004 | - | 2 µg/mL
C[C@@H]1[C@H](O)[C@@H](C)/C=C/C=C/CC/C=C/C=C/C=C/C=C/C(O[C@H]2O[C@H](C)[C@@H](O)[C@H](N)[C@@H]2O)CC2O[C@](O)(CC(O)C(O)CCC(O)CC(O)CC(O)CC(=O)O[C@H]1C)CC(O)C2C(=O)O | MTCC 282 | broth dilution | 100 µg/mL
COC(=O)[C@]1(C)CCC[C@]2(C)c3ccc(C(C)C)cc3-c3[nH]c4ccccc4c3C12 | CGMCC3.316 | - | >100 µg/mL
Cc1c(-c2ccccc2)c(=O)oc2ccc(-c3cc(-c4ccc(Cl)cc4)c4c(n3)-c3ccccc3C4)cc12 | MTCC 282 | broth dilution / turbidity | 200 µg/mL
COC(=O)[C@]1(C)CCC[C@]2(C)c3ccc(C(C)C)cc3-c3[nH]c4ccc(C)cc4c3C12 | CGMCC3.316 | - | >100 µg/mL
Brc1ccccc1COc1cccc2cccnc12 | - | broth dilution | >100 µg/mL
C[C@@H]1OC(OC[C@H]2OC(Oc3c(-c4ccc(O)c(O)c4)oc4cc(O)cc(O)c4c3=O)[C@H](O)[C@@H](O)[C@@H]2O)[C@H](O)[C@H](O)[C@H]1O | - | - | 80 µg/mL
Nc1c(/C=N/NC(=O)c2ccncc2)cccc1CN1CCOCC1 | MTCC 8184 | - | 3.12 µg/mL
O=C/C=C/c1ccccc1 | IOA-3 | broth dilution | 160 µg/mL
Nc1ccccc1/C=N/NC(=O)c1ccncc1 | MTCC 8184 | - | 12.5 µg/mL
Cc1ccc(N2NOC(=O)C2S(=O)(=O)Nc2nc(-c3c(Cl)cccc3Cl)cs2)cc1 | MTCC 282 | broth dilution | 250 µg/mL
O=C1c2cc(CO)cc(O)c2C(=O)c2cc(O)cc(O)c21 | MTCC 1344 | broth dilution | 32.25 µg/mL
Cc1ccc(N2NOC(=O)C2S(=O)(=O)Nc2nc(-c3ccc(Cl)cc3Cl)cs2)cc1 | MTCC 282 | broth dilution | 500 µg/mL
CCOC(=O)CC#N | - | broth dilution | 16000 µM
CCC(C)n1ncn(-c2ccc(N3CCN(c4ccc(OC[C@H]5CO[C@](Cn6cncn6)(c6ccc(Cl)cc6Cl)O5)cc4)CC3)cc2)c1=O | - | agar diffusion | 10 µg/mL
O=C1C(c2ccc(Cl)cc2)=[N+]([O-])c2cccnc21 | - | - | 31.25 µg/mL
C[C@H]1[C@H](O)[C@@H](C)/C=C/C=C/C=C/C=C/C=C/C=C/C=C/[C@H](O[C@@H]2O[C@H](C)[C@@H](O)[C@H](N)[C@@H]2O)C[C@@H]2O[C@](O)(C[C@@H](O)C[C@@H](O)CC[C@H](O)[C@@H](O)C[C@@H](O)CC(=O)O[C@H]1C)C[C@H](O)[C@H]2C(=O)O | A420 | broth dilution | 2–4 µg/mL
CC(C)=CCOc1ccc2c(c1C)C(=O)c1ccccc1C2=O | Standard strain | broth dilution | 62.5 µg/mL
O=C(O)c1ccc(NC(=S)N=Nc2c(O)[nH]c3ccccc23)cc1 | - | agar diffusion | 2.05 µM
O=C1CCC(c2ccccc2)C(=O)N1CCCCN1CCN(c2ccccc2)CC1 | DSM 1988 | - | >100 µM
CC(=O)N1CCN(c2ccc(OC[C@H]3CO[C@](Cn4ccnc4)(c4ccc(Cl)cc4Cl)O3)cc2)CC1 | ATCC 6275 | broth dilution | >150 µg/mL
O=C1CCC(c2ccccc2)C(=O)N1CCCCN1CCN(c2ccccn2)CC1 | DSM 1988 | - | >100 µM
COc1ccc2c(c1)C(=O)C(c1cccnc1)=[N+]2[O-] | - | - | >125 µg/mL
O=[N+]([O-])c1ccc(COc2cccc3cccnc23)cc1 | - | broth dilution | >100 µg/mL
C=CCc1ccc(O)c(OC)c1 | IOA-3 | broth dilution | 160 µg/mL
CCCCCN(CCCCC)Cc1cccc(/C=N/NC(=O)c2ccncc2)c1N | MTCC 8184 | - | 3.12 µg/mL
Oc1cccc2cc(Cl)cnc12 | ATCC 1004 | - | 6 µg/mL
O=C1C(c2ccc(Cl)cc2)=[N+]([O-])c2ccccc21 | - | - | >12.5 µg/mL
FC(F)(F)c1cccc([Se][Se]c2cccc(C(F)(F)F)c2)c1 | - | broth dilution | >64 µg/mL
CCCN(CCC)Cc1cccc(/C=N/NC(=O)c2ccncc2)c1N | MTCC 8184 | - | 12.5 µg/mL
Cc1ccc(-c2cc(-c3ccc4oc(=O)c(-c5ccccc5)c(C)c4c3)nc3c2Cc2ccccc2-3)cc1 | MTCC 282 | broth dilution / turbidity | 1000 µg/mL
C[C@@H]1[C@H](O)[C@@H](C)/C=C/C=C/CC/C=C/C=C/C=C/C=C/C(O[C@H]2O[C@H](C)[C@@H](O)[C@H](N)[C@@H]2O)CC2O[C@](O)(CC(O)C(O)CCC(O)CC(O)CC(O)CC(=O)O[C@H]1C)CC(O)C2C(=O)O | MTCC 282 | - | 100 µg/mL
Cc1ccc(N2NOC(=O)C2S(=O)(=O)Nc2nc3ccc(F)cc3s2)cc1 | MTCC 282 | broth dilution | 500 µg/mL
COC(=O)[C@]1(C)CCC[C@]2(C)c3ccc(C(C)C)cc3-c3[nH]c4c(F)cccc4c3C12 | CGMCC3.316 | - | 62.5 µg/mL
O=C1CCC(c2ccccc2)C(=O)N1CCCCN1CCN(Cc2ccccc2)CC1 | DSM 1988 | - | >100 µM
Cc1c(-c2ccccc2)c(=O)oc2ccc(-c3cc(-c4ccc(Cl)cc4)c4oc5ccccc5c4n3)cc12 | MTCC 282 | broth dilution / turbidity | >1000 µg/mL
CCC(C)CC(C)/C=C(\C)C1OC(c2cc(C3(O)CCC(=O)CC3O)cn(C)c2=O)CCC1C | - | - | 10 µg/mL

For reference, 4 entries again:

SMILES | strain or isolate | read by | value
Nc1c(/C=N/NC(=O)c2ccncc2)cccc1CN1CCCC1 | MTCC 8184 | - | 25 µg/mL
COc1ccc2c(c1)C(=O)C(c1cccnc1)=[N+]2[O-] | - | - | >125 µg/mL
C[C@@H]1OC(OC[C@H]2OC(Oc3c(-c4ccc(O)c(O)c4)oc4cc(O)cc(O)c4c3=O)[C@H](O)[C@@H](O)[C@@H]2O)[C@H](O)[C@H](O)[C@H]1O | - | - | 80 µg/mL
Oc1cccc2cccnc12 | ATCC 1004 | - | 20 µg/mL